Compound potency records, mixed from different reports. Data source: NIAID ChemDB in PubChem.

All rows: growth or infection tests; species: Hepatitis C virus; cell line: Huh7; endpoint: EC50

Conditions beyond the fields shown may differ between rows.

structure | strain or isolate | changes | read by | value
CNC(=O)c1c(-c2ccc(F)cc2)oc2cc(N3CCN(C)CC3)c(OC(C)C)cc12 | - | - | replicon | >30 µM
CCOc1nc(N)nc2ccc(-c3cccc(NS(=O)(=O)C4CCS(=O)(=O)C4)c3)nc12 | - | - | replicon | <0.3 µM
O=C(NS(=O)(=O)C1CC1)c1ccc2c(C3CCCCC3)c3n(c2c1)CC(C(=O)N1CCOCC1)=Cc1cccnc1-3 | - | - | replicon | 0.01–1 µM
CNC(=O)c1c(-c2ccc(F)cc2)oc2cc(-c3c(C)noc3C)c(OCc3cscn3)cc12 | - | - | replicon | <1 µM
O=C(Cc1cnc[nH]1)N/N=C/c1ccccc1OS(=O)(=O)c1ccc(C(F)(F)F)cc1 | - | - | replicon | <5 µM
CCC(C)(O)COc1cc2c(C(=O)NC)c(-c3ccc(F)cc3)oc2cc1N1CCOCC1 | - | - | replicon | <10 µM
CCOc1nc(N)nc2ccc(-c3ncc(N)s3)nc12 | - | - | replicon | <0.3 µM
CNC(=O)c1c(-c2ccc(Br)cc2)oc2ccc(OC(C)C)cc12 | - | - | replicon | <10 µM
C[C@@H]1CN(C(=O)C2=Cc3ccccc3-c3c(C4CCCCC4)c4ccc(C(=O)NS(=O)(=O)N(C)C)cc4n3C2)C[C@H](C)O1 | - | - | replicon | 0.01–1 µM
CNC(=O)c1c(-c2ccc(F)cc2)oc2cc(S(=O)(=O)N3CCC(O)CC3)c(OC(C)C)cc12 | - | - | replicon | <1 µM
COc1ccc(CC(=O)N/N=C/c2ccccc2OS(=O)(=O)c2ccc(C)cc2)cc1OC | - | - | replicon | <5 µM
O=C(Nc1ccc(C2SC(=Nc3ccc(F)c(Cl)c3)N(Cc3ccco3)C2=O)cc1)[C@H]1CCCN1C(=O)OCc1ccccc1 | - | - | replicon | 1–5 µM
COC(=O)C1=Cc2cc(Cl)ccc2-c2c(C3CCCCC3)c3ccc(C(=O)OC)cc3n2C1 | - | - | replicon | 1–10 µM
CNC(=O)c1c(-c2ccc(F)cc2)oc2cc(C3CNC(=O)C3)c(OC)cc12 | - | - | replicon | <10 µM
CCOc1nc(N)nc2ccc(-c3ccc(NC(=O)[C@H](C)N)cc3)nc12 | - | - | replicon | <0.3 µM
COc1cccc(CC(=O)N/N=C/c2ccc(Cl)cc2OS(=O)(=O)c2ccc(C)cc2)c1 | - | - | replicon | <5 µM
C[C@@H](NC(=O)OCc1ccccc1)C(=O)Nc1ccc(C2SC(=Nc3cccc(Oc4ccccc4)c3)N(Cc3ccco3)C2=O)cc1 | - | - | replicon | 0.1–1 µM
CCOC(=O)c1nc(-c2ccc(NC(=O)C3(NC(=O)c4ccc5c(C6CCCCC6)c6n(c5c4)CCCc4ccccc4-6)CCCC3)cc2)cs1 | - | - | replicon | 0.01–1 µM
CNC(=O)c1c(-c2ccc(F)cc2)oc2cc(N(CCF)S(C)(=O)=O)c(OC)cc12 | - | - | replicon | <1 µM
COc1c(-c2ccc3cc(NS(C)(=O)=O)ccc3c2)cc(-n2ccc(=O)[nH]c2=O)cc1C(C)(C)C | genotype 1b | P495S | luciferase | 0.0019 µM
CC(C)(N)C(=O)Nc1ccc(-c2ccc3nc(N)nc(O[C@@H]4CCOC4)c3n2)cc1 | - | - | replicon | <0.3 µM
O=C(Cc1ccc2ccccc2c1)N/N=C/c1ccccc1OS(=O)(=O)c1ccc(C(F)(F)F)cc1 | - | - | replicon | <5 µM
C[C@@H](NC(=O)OCc1ccccc1)C(=O)Nc1ccc(C2SC(=Nc3cccc4ccncc34)N(Cc3ccco3)C2=O)cc1 | - | - | replicon | <0.1 µM
CNC(=O)c1c(-c2ccc(F)cc2)oc2cc(N(C)S(C)(=O)=O)c(OCc3cscn3)cc12 | - | - | replicon | <1 µM
COc1cccc(CC(=O)N/N=C/c2c(C)cccc2OS(=O)(=O)c2ccc(C)cc2)c1 | - | - | replicon | <5 µM
O=C(O)/C=C/c1ccc(NC(=O)C2(NC(=O)c3ccc4c(C5CCCCC5)c5n(c4c3)CC/C=C\Nc3ccccc3-5)CCCC2)cc1 | - | - | replicon | 0.01–1 µM
CCOc1nc(N)nc2ccc(-c3ccc(C(=O)NC4CC4)c(Cl)c3)nc12 | - | - | replicon | 0.3–1 µM
CN(C)S(=O)(=O)NC(=O)c1ccc2c(C3CCCCC3)c3n(c2c1)CC(C(=O)N1CCOCC1)=Cc1cccnc1-3 | - | - | replicon | 0.01–1 µM
CNC(=O)c1c(-c2ccc(F)cc2)oc2cc(N(C)S(C)(=O)=O)c(OCCn3cccn3)cc12 | - | - | replicon | <1 µM
O=C(Nc1ccc(C2SC(=Nc3ccc(N4CCOCC4)cc3)N(Cc3cccnc3)C2=O)cc1)[C@H]1CCCN1C(=O)OCc1ccccc1 | - | - | replicon | 0.1–1 µM
C[C@@H]1CN(C(=O)C2=Cc3ccccc3-c3c(C4CCCCC4)c4ccc(C(=O)O)cc4n3C2)C[C@H](C)O1 | - | - | replicon | 0.01–1 µM

4 of the rows above, restated:

| structure | strain or isolate | changes | read by | value |
|---|---|---|---|---|
| O=C(NS(=O)(=O)C1CC1)c1ccc2c(C3CCCCC3)c3n(c2c1)CC(C(=O)N1CCOCC1)=Cc1cccnc1-3 | - | - | replicon | 0.01–1 µM |
| C[C@@H](NC(=O)OCc1ccccc1)C(=O)Nc1ccc(C2SC(=Nc3cccc4ccncc34)N(Cc3ccco3)C2=O)cc1 | - | - | replicon | <0.1 µM |
| CNC(=O)c1c(-c2ccc(F)cc2)oc2cc(N(CCF)S(C)(=O)=O)c(OC)cc12 | - | - | replicon | <1 µM |
| CCOc1nc(N)nc2ccc(-c3ccc(C(=O)NC4CC4)c(Cl)c3)nc12 | - | - | replicon | 0.3–1 µM |

An empty or dashed field is not shown. ECn is the concentration giving n% inhibition of infection, replication or growth. a–b is a range or a potency band.